The results in this text go back to paper PMC5454392, “Selective BET bromodomain inhibition as an antifungal therapeutic strategy” (Nature Communications, 2017).

This test has as its target T1, CaBdf1 BD2 Y425F (Candida albicans, UniProt Q5A4W8, Y425F).
T1 construct: made in house; host or cells: E. coli BL21(DE3), inferred from the wild-type GST construct
The test can be described thus: Histone peptide microarray binding, YF mutant.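 Further: normalized to spotted c-myc peptide positive control signal.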 The note with it: normalized array signal. Also on record: species or system C. albicans. The protocol:
In short, arrays were blocked and incubated with 1 μM of purified CaBdf1 BD1 or BD2. Arrays were incubated with recombinant BDs for 2 h at 4 °C in binding buffer (Tris-HCl 50 mM pH 7.4, NP-40 0.1%, NaCl 150 mM, glycerol 10%). […] Assays were performed in duplicate. Images were acquired on a Bio-Rad ChemiDoc XRS Imaging machine and data were quantified using the array analyser software provided by Active Motif.

Regarding “A R T K Q T A R K S pT G G Kac A P R K Q”, the “CaBdf1 BD2 Normalized (0 to 100%) YF mutant” value was found to be 0.293%. In the case of “A R T Kme3 Q T A Rme2s Kme1 S T G G K A P R K Q” it was 0.195%; in that of “A R T K Q T A Rme2a Kac S pT G G K A P R K Q”, 0.293%.

Regarding “A Rme2a T Kac Q T A Rme2a K S T G G K A P R K Q”, the “CaBdf1 BD2 Normalized (0 to 100%) YF mutant” value worked out at 0.293%. Turning to “A R T K Q T A Rme2s Kac S pT G G K A P R K Q”, the “CaBdf1 BD2 Normalized (0 to 100%) YF mutant” value stood at 0.293%.

Consider “A R T K Q T A Rme2a Kme1 pS pT G G K A P R K Q”, for which the “CaBdf1 BD2 Normalized (0 to 100%) YF mutant” value is given as 0.293%. Turning to “A R T K Q T A Rme2a Kme2 pS pT G G K A P R K Q”, the “CaBdf1 BD2 Normalized (0 to 100%) YF mutant” value is recorded as 0.293%.
